Compound potency records, mixed from different reports. Data source: NIAID ChemDB in PubChem.

Common to all: growth or infection tests; agent: HIV-1; measure: EC50

Rows are shuffled and stem from different studies.

smiles,mutations,strain,cells,result
O=C(Nc1cc(S(=O)(=O)O)cc2cc(S(=O)(=O)O)c(N=Nc3ccc(N=Nc4c(S(=O)(=O)O)cc5cc(S(=O)(=O)O)cc(NC(=O)c6cccc(Cl)c6Cl)c5c4O)cc3)c(O)c12)c1ccc(Cl)cc1Cl,-,A018A,PBMC,1.26–1.58 µg/mL
COc1ccc(-n2c(SCC(=O)Nc3ccc(S(N)(=O)=O)cc3Cl)nnc2C(F)(F)F)c2ccccc12,Y188L,-,HeLa,0.014 µM
C[C@H](Cn1cnc2c(N)ncnc21)OCP(=O)(O)O,+Vpx,NL4-3,MT-4,2.162 µM
NS(=O)(=O)c1ccc(NC(=O)CSc2nnc(C(F)(F)F)n2-c2cccc3ccccc23)c(Cl)c1,Y188L,-,HeLa,0.049 µM
O=c1[nH]cnc2c1ncn2[C@H]1CC[C@@H](CO)O1,RT-A98G V106I Y181C,BCF07,PBMC,0.5 µM
Cc1ccc(-n2c(C)nnc2SCC(=O)Nc2ccc(S(N)(=O)=O)cc2Cl)c2ccccc12,Y188L,-,HeLa,0.02 µM
CC(C)CN(C[C@@H](O)[C@H](Cc1ccccc1)NC(=O)O[C@H]1CCOC1)S(=O)(=O)c1ccc(N)cc1,L10F V32I M46I I45M A71V I84V APV resistant,NL4-3,MT-4,>1 µM
O=C1O[C@H]2[C@@H]3OC(=O)c4cc(O)c(O)c(O)c4-c4c(cc(O)c(O)c4O)C(=O)OC[C@H]2O[C@@H](OC(=O)c2cc(O)c(O)c(O)c2)[C@@H]3OC(=O)c2cc(O)c(O)c3c2[C@@H]2C1=CC(=O)[C@](O)(O3)C2(O)O,-,HX10 WT,MAGI,0.74 µg/mL
Nc1nc(N)c2ncn([C@H]3CO[C@@H](CO)O3)c2n1,-,-,MT-2,3.3 µM
Cc1ccnc2c1NC(=O)c1cccnc1N2C1CC1,RT-M41L T215Y Y181C,-,MT-4,<3 µM
Cc1ccnc2c1NC(=O)c1cccnc1N2C1CC1,+Vpx,NL4-3,Primary T lymphocytes,1.256 µM
CC(C)CN(C[C@@H](O)[C@H](Cc1ccccc1)NC(=O)[C@H](CC(N)=O)NC(=O)c1ccc2ccccc2n1)C(=O)NC(C)(C)C,-,RF,MT-2,0.053 µM
COC(=O)N[C@H](C(=O)N[C@@H](Cc1ccccc1)[C@@H](O)CN(Cc1ccc(-c2ccccn2)cc1)NC(=O)[C@@H](NC(=O)OC)C(C)(C)C)C(C)(C)C,A28S L33F V82I GRL04810-resistant,NL4-3,MT-4,0.325 µM
Cc1cn([C@H]2C[C@H](N=[N+]=[N-])[C@@H](CO)O2)c(=O)[nH]c1=O,RT-A98G K103R Y181C,BCF01,PBMC,<0.01 µM
Nc1nc(NC2CC2)c2ncn([C@H]3C=C[C@@H](CO)C3)c2n1,+Vpx,NL4-3,MDM,0.003 µM
CC(C)(C)NC(=O)[C@@H]1C[C@@H]2CCCC[C@@H]2CN1C[C@@H](O)[C@H](Cc1ccccc1)NC(=O)[C@H](CC(N)=O)NC(=O)c1ccc2ccccc2n1,M46I I50V N38K M36I GRL05010-resistant,NL4-3,MT-4,0.036 µM
Cc1cc(C)c2ccc(C)c(-n3c(C)nnc3SCC(=O)Nc3ccc(S(N)(=O)=O)cc3Cl)c2n1,-,-,HeLa,0.0007 µM
Cc1nnc(C(=O)NC(C)(C)c2nc(C(=O)NCc3ccc(F)cc3)c(O)c(=O)n2C)o1,-,NL4-3,Primary T lymphocytes,0.017 µM
Nc1ccn([C@H]2CC[C@@H](CO)O2)c(=O)n1,RT-A98G Y181C,BCF03,PBMC,0.12 µM
CO[P@](=O)(c1cc(C)cc(/C=C/C#N)c1)c1c(C(N)=O)[nH]c2ccc(Cl)cc12,K103N,BH10,MT-4,0.00014 µM

2 of the rows above, restated:

{"smiles": "O=C1O[C@H]2[C@@H]3OC(=O)c4cc(O)c(O)c(O)c4-c4c(cc(O)c(O)c4O)C(=O)OC[C@H]2O[C@@H](OC(=O)c2cc(O)c(O)c(O)c2)[C@@H]3OC(=O)c2cc(O)c(O)c3c2[C@@H]2C1=CC(=O)[C@](O)(O3)C2(O)O", "strain": "HX10 WT", "cells": "MAGI", "result": "0.74 µg/mL"}
{"smiles": "Cc1ccc(-n2c(C)nnc2SCC(=O)Nc2ccc(S(N)(=O)=O)cc2Cl)c2ccccc12", "mutations": "Y188L", "cells": "HeLa", "result": "0.02 µM"}

An empty or dashed field is not shown. Two numbers with a dash give a range or band. ECn: concentration that inhibits the pathogen or its effect by n%.